Results as given in patent US12643905B2, “Spiropyrrolidine derived antiviral agents” (priority 2021, dated 2026).

Target: SARS-CoV-2 3CL-protease (Severe acute respiratory syndrome coronavirus 2, UniProt P0DTD1)
Assay: SARS-CoV-2 3C-like (3CL) protease fluorescence assay (FRET)
Conditions: read-out: FRET IC50; recombinant SARS-CoV-2 3CL-protease 10 nM, 30 min preincubation, run in duplicate
Experimental: SARS-CoV-2 3C-like (3CL) protease fluorescence assay (FRET): Recombinant SARS-CoV-2 3CL-protease was expressed and purified. TAMRA-SITSAVLQSGFRKMK-Dabcyl-OH peptide 3CLpro substrate was synthesized. Black, low volume, round-bottom, 384 well microplates were used. In a typical assay, 0.85 μL of test compound was dissolved in DMSO then incubated with SARS-CoV-2 3CL-protease (10 nM) in 10 μL assay buffer (50 mM HEPES [pH 7.5], 1 mM DTT, 0.01% BSA, 0.01% Triton-X 100) for 30 min at RT. Next, 10 μL of 3CL-protease substrate (40 μM) in assay buffer was added and the assays were monitored continuously for 1 h in an Envision multimode plate reader operating in fluorescence kinetics mode with excitation at 540 nm and emission at 580 nm at RT. No compound (DMSO only) and no enzyme controls were routinely included in each plate. All experiments were run in duplicate.
Data Analysis: SARS-CoV-2 3CL-protease enzyme activity was measured as initial velocity of the linear phase (RFU/s) and normalized to controlled samples DMSO (100% activity) and no enzyme (0% activity) to determine percent residual activity at various concentrations of test compounds (0-10 μM). Data were fitted to normalized activity (variable slope) versus concentration fit in GraphPad Prism 7 to determine IC50. All experiments were run in duplicate, and IC50 ranges are reported as follows: A<0.1 μM; B 0.1-1 μM; C>1 μM.

Compound `CC(C)(C)C[C@H](NC(=O)C(=O)NC12CC3CC(CC(C3)C1)C2)C(=O)N1C[C@]2(C[C@H]1C#N)C(=O)Nc1ccccc12` has an IC50 of less than 100 nM.
